Measured values reported in article PMC8383118.

System: ComR S. mutans + XIP S. mutans
Assay: EMSA
Settings: 8 uM XIP, 100 ng FAM-DNA, 15-30 min incubation, 5% native PAGE, 100 V, 50 min, 4 C, recombinant protein, protein details: His-tag removed with thrombin, label: 5' FAM (reverse primer), probe letters rebuilt from the primers and the genome

“CCTGTTATTCTCCTTTCTTTTTGATATCATTCATTATAAATGATCCTTCAAAAAAAGAACAGGACATTTATGTCCCGTTCTGAGAATCTTTTTGCCATTCTTTCTCCAAATTTTCTCTTAAATTAATGTTTTCTGTTAACTGGGCAAATAAGATAGCAGCATCATAGCTCTTTTTAGCTTCCGCATAATCTTTTTCAACAAATAAATGATGCTTCCATGTCAGAAGATTAACAATAGGCTTTTTTTGAAAATCATGAGTTCTATCCATGATTTTATTGCTGACAGCAATAAGCTGCTTAACAAAATCATATTTTTTCAATTCTAAGAGGAGTCCAAAATTATTCAATAAAACATTATTTAAAACGAAAAGATCTTCCAATGGAAGGCAGTCTACCTGCTT (double strand) [comS promoter probe (PcomS)]”: binds (4 uM ComR, 100 ng DNA, no Prx); binds (Prx D32A (P3) present, not in complex, no inhibition in any of the three orders of addition).

Construct, isoform or probe ends are uncertain for at least one entry.
